Values quoted from earlier work as cited in patent US7745401B2, “Antifungal peptides and methods of use thereof” (The Board of Regents of the University of Oklahoma, priority 2005, dated 2010).

System: Candida
Details: cited from earlier work

Substance	pH of maximal activity
PF-4: platelet factor-4, isolated from human platelets	5.5
RANTES: Regulated upon Activation Normal T cell Expressed and Secreted protein, isolated from human platelets	5.5
